Assays:
MRSA strains = assay: MBC, MRSA strains taken together; format: cell-based, Staphylococcus aureus
Procedure: (§1) After incubation at 35°C for 24 hr, the colonies were counted and the percentage of inhibition was calculated. MBC is defined as the lowest compound's concentration that inhibits at least 99.9% of the bacterial cell count compared to nontreated viability control (Clinical and Laboratory Standards Institute, 1999).

BSC‐40 cells = assay: Cytotoxicity, MTT reduction assay; format: cell-based; details: CC50 divided by MIC; for SI Strain 5749 / SI Strain 5912 / SI Strain 6154 / SI Strain 6613 / SI Strain 6100: MRSA
Procedure: (§2) The cytotoxicity of active compounds to mammalian cells was assessed using the MTT reduction assay (Mosmann, 1983). Vero and BSC‐40 cells were seeded in 96‐well plates (8 × 10^4 cells per well) and incubated at 37°C and 5% CO2 atmosphere. After 24 hr of incubation, 200 μL of fresh medium containing a serial dilution of compounds (10–1.25 μg/ml) were added to the plates. After 48 hr of incubation in the same conditions, 100 μL of MTT solution in MEM or DMEM (5 mg/ml) was added to each well and incubated for 3 hr at 37°C and 5% CO2 atmosphere. The medium was removed and 100 μL of DMSO was used to solubilize formazan crystals. Absorbance at 570 nm of each well was read using a spectrophotometer (VersaMax, Molecular Devices).

Vero cells = assay: Cytotoxicity, MTT reduction assay; format: cell-based; details: CC50 divided by MIC; for SI Strain 5749 / SI Strain 5912 / SI Strain 6154 / SI Strain 6613 / SI Strain 6100: MRSA
Procedure: as §2

S. aureus ATCC 29212 = assay: MBC, plating of wells without growth; format: cell-based, Staphylococcus aureus; details: ratio in parentheses
Procedure: as §1

S. pyogenes ATCC 19615 = assay: MBC, plating of wells without growth; format: cell-based, Streptococcus pyogenes; details: ratio in parentheses
Procedure: as §1

E. faecalis ATCC 29213 = assay: MBC, plating of wells without growth; format: cell-based, Enterococcus faecalis; details: ratio in parentheses
Procedure: as §1

Structure (SMILES) | SI Staphylococcus aureus (BSC‐40 cells) | SI Streptococcus pyogenes (BSC‐40 cells) | SI Strain 5749 (BSC‐40 cells) | SI Strain 5912 (BSC‐40 cells) | SI Strain 6154 (BSC‐40 cells) | SI Strain 6613 (BSC‐40 cells) | SI Staphylococcus aureus (Vero cells) | SI Streptococcus pyogenes (Vero cells) | SI Strain 5749 (Vero cells) | SI Strain 5912 (Vero cells) | SI Strain 6154 (Vero cells) | SI Strain 6613 (Vero cells) | MBC/MIC S. pyogenes ATCC 19615 (S. pyogenes ATCC 19615) | SI Strain 6100 (BSC‐40 cells) | SI Strain 6100 (Vero cells) | other results
NC(COc1cccc2ccccc12)COc1cccc2ccccc12 [CPD20] |  |  |  |  |  |  |  |  |  |  |  |  |  |  |  | MBC compared with MIC (MRSA strains; MRSA strains nº 5749, 5912, 6100 and 6613): same values
NC(COc1ccc(Cl)cc1)COc1ccc(Cl)cc1 [CPD18] | 0.57 | 0.57 | 0.57 | 0.57 | 0.57 | 0.57 | 0.6 | 0.6 | 0.6 | 0.6 | 0.6 | 0.6 |  |  |  | 
NC(COc1ccc2ccccc2c1)COc1ccc2ccccc2c1 [CPD21] | 0.51 | 0.51 | 0.51 | 1.01 | 0.51 | 0.51 | 0.43 | 0.43 | 0.43 |  |  | 0.43 | 1.0 | 0.51 | 0.43 | MBC/MIC S. aureus ATCC 29212 (S. aureus ATCC 29212): 1.0; MBC/MIC S. aureus ATCC 29212 (S. aureus ATCC 29212; listed as CPD 21): equivalence; MBC/MIC S. pyogenes ATCC 19615 (S. pyogenes ATCC 19615; listed as CPD 21): equivalence
Cl.NC(COc1ccc(Cl)c(Cl)c1)COc1ccc(Cl)c(Cl)c1 [CPD22, 1,3‐Bis(3,4‐dichlorophenoxy)propan‐2‐aminium chloride] | 0.88 | 1.77 | 1.77 | 1.77 | 1.77 | 0.88 | 1.09 | 2.19 | 2.19 | 2.19 | 2.19 | 1.09 | 4.0 | 1.77 | 2.19 | MBC/MIC E. faecalis ATCC 29213 (E. faecalis ATCC 29213): > 2.0; SI Enterococcus faecalis (BSC‐40 cells): 0.88; SI MRSA ATCC 43300 (BSC‐40 cells): 0.88; SI Enterococcus faecalis (Vero cells): 1.09; SI MRSA ATCC 43300 (Vero cells): 1.09; MBC compared with MIC (MRSA strains; MRSA 43300, 5749, 5912 and 6613): same values
